Pooled drug test results. Numbers come from NIAID ChemDB, via PubChem.

Common to all: growth or infection tests; species: Human herpesvirus 6

Blank or dashed fields: not listed here.

| SMILES | cells | measure | dose | conditions | method | strain | result |
|---|---|---|---|---|---|---|---|
| Nc1ccn(C[C@@H](CO)OCP(=O)(O)O)c(=O)n1 | Human T-lymphoblasts | EC50 |  |  | cytopathic effect |  | 2 µM |
| COC(=O)[C@H](C)NP(=O)(OC[C@H]1C/C1=C/n1cnc2c(=O)[nH]c(N)nc21)Oc1ccccc1 | HSB-2 | EC50 |  |  | ELISA | GS | 90 µM |
| Nc1nc2c(ncn2CCC(CO)CO)c(=O)[nH]1 | HUMAN CORD BLOOD CELL | inhibition | 100 µM | 6 d | antigen | 729 | 29% |
| Nc1nccc2c1ncn2C[C@H]1COP(=O)(O)CO1 | HSB-2 | EC50 |  |  | antigen / flow cytometry | GS | 3.7 µM |
| Nc1nc(N)c2ncn(C[C@@H](CO)OCP(=O)(O)O)c2n1 | HSB-2 | EC50 |  |  | cytopathic effect | GS | 8.1 µg/mL |
| Nc1ncnc2c1ncn2CCOCP(=O)(O)O | HSB-2 | EC50 |  |  | cytopathic effect | U1102 (TYPE 6A) | >277 µM |
| Nc1nc2c(ncn2C[C@@H]2COP(=O)(O)CO2)c(=O)[nH]1 | HSB-2 | EC50 |  |  | cytopathic effect | GS | >25 µM |
| O=c1[nH]c(=O)n([C@H]2C[C@H](O)[C@@H](CO)O2)cc1C(F)(F)F | HSB-2 | EC50 |  |  | cytopathic effect | U1102 (TYPE 6A) | >20 µM |
| O=C(O)P(=O)(O)O | HSB-2 | EC50 |  |  | ELISA |  | 31 µM |
| Nc1ncnc2c1ncn2C[C@@H](CO)OCP(=O)(O)O | HSB-2 | EC50 |  |  | antigen / flow cytometry | GS | 8 µM |
| Nc1ncnc2c1ncn2[C@@H]1O[C@H](CO)[C@@H](O)[C@@H]1O | HSB-2 | EC50 |  |  | cytopathic effect | U1102 (TYPE 6A) | >3.2 µM |
| COC(=O)[C@H](C)NP(=O)(OC[C@H]1C/C1=C/n1cnc2c(N)nc(N)nc21)Oc1ccccc1 | HSB-2 | EC50 |  |  | ELISA | GS | 20 µM |
| Nc1ccn(C[C@@H](CO)OCP(=O)(O)O)c(=O)n1 | HSB-2 | EC50 |  |  | cytopathic effect | U1102 (TYPE 6A) | >42 µM |
| C[C@H](Cn1cnc2c(N)nc(N)nc21)OCP(=O)(O)O | HSB-2 | EC50 |  |  | antigen / flow cytometry | GS | >300 µM |
| Nc1nc2c(ncn2C[C@]2(CO)C[C@H]2CO)c(=O)[nH]1 | Human T-lymphoblasts | EC50 |  |  | cytopathic effect |  | 3.4 µM |
| CC(C)(C)C(=O)OCOP(=O)(COCCn1cnc2c(N)ncnc21)OCOC(=O)C(C)(C)C | HSB-2 | EC50 |  |  | cytopathic effect | U1102 (TYPE 6A) | 0.65 µM |

The last 2 rows once more:

SMILES,cells,measure,dose,conditions,method,strain,result
Nc1nc2c(ncn2C[C@]2(CO)C[C@H]2CO)c(=O)[nH]1,Human T-lymphoblasts,EC50,,,cytopathic effect,,3.4 µM
CC(C)(C)C(=O)OCOP(=O)(COCCn1cnc2c(N)ncnc21)OCOC(=O)C(C)(C)C,HSB-2,EC50,,,cytopathic effect,U1102 (TYPE 6A),0.65 µM

Percent inhibition refers to the dose given; in toxicity tests it is the harm to the cells. Rows are shuffled and stem from different studies. ECn is the concentration giving n% inhibition of infection, replication or growth.